Test results taken from patent US20190359662A1.

Target: hNav1.1 (human), P35498
Assay: cell-based or functional assay

Row | Binder | Selectivity for Nav1.7, membrane potential assay [fold]
1 | DCRYMFGDCEKDEDCCKHLGCKRKMKYCAWDFTFT (modifications not checked) [Pnc1a-CONH2] | 18
2 | DCRYMFGDCEKDEDCCKHLGCKRKMKYCAWDFTFT (modifications not checked) [Ac-Pnc1a] | 41
